Results of unrelated studies side by side (data: NIAID ChemDB).

Common to all: host cell toxicity; read-out: CC50

An empty or dashed field is not shown. CCn: concentration that lowers growth or viability of the cells by n%. Conditions beyond the fields shown may differ between rows.

smiles	method	cells	result
CC(C)C[C@@H]1NC(=O)[C@H](Cc2c[nH]c3ccccc23)NC(=O)[C@@H](CCCCN)NC(=O)[C@H](CCCCN)NC(=O)[C@H](C(C)C)NC(=O)[C@@H](CC(C)C)NC1=O	MTT	Lung carcinoma cells	>30 µM
O=c1cc(O)c2cccnc2n1O	-	HeLa	<100 µM
CCn1c(-c2ccccc2)c(C)c(=O)c2ccc(C(C)C)cc21	MTT	HeLa S3	>10 µg/mL
CCOC(=O)C1=C(CN2CC(F)(F)[C@@H]3[C@H]2CON3C[C@@H](OCC)C(C)(C)C(=O)O)NC(c2nccs2)=N[C@H]1c1cccc(F)c1C	WST / absorbance	HepG2.2.15	48 µM
NC(=S)Nc1cccc(OCCCCc2ccccc2)c1	MTS	Ava5-EG(delta4AB)SEAP	>1 µM
NC(=O)c1ncc(Cl)c2c(C(=O)C(=O)N3CCN(C(=O)c4ccccc4)CC3)c[nH]c12	trypan blue	HeLa	>100 µM
COC(=O)C1=C(CN2CC(F)(F)[C@H]3[C@@H]2CCN3CC[C@](C)(O)C(=O)O)NC(c2nccs2)=N[C@H]1c1ccc(F)c(F)c1F	WST / absorbance	HepG2.2.15	>100 µM
CC(=O)N1CCn2c(nc(C(=O)NCc3ccc(F)cc3)c(O)c2=O)C1(C)C	microscopy	MT-4	>1 µM
CCOC(OCC)C(=O)NCCc1ccc(OC)c(OC)c1	-	HepG2	>20 µM
COc1cnc(-c2ccn(C)n2)c2[nH]cc(C(=O)C(=O)N3CCN(C(=O)c4ccccc4)CC3)c12	trypan blue	HeLa	≤100 µM
O=c1c(-c2ccccc2)c(O)c2cc(Br)cnc2n1O	-	HeLa	<100 µM
CCCCC(=O)OC1CC(OC(C)C(C)C(O)C(C)C(O)C(C)C2OC(=O)/C=C/CC(O)CC(O)CC(O)CCC(C)C(O)C[C@@]3(O)O[C@H](CC(O)CC(OC(=O)CC(=O)O)CCCC(O)C4OC4C2C)C[C@H](O)[C@H]3O)OC(C)C1O	-	HEK-297	>100 µg/mL
CC(C)c1ccc2c(c1)c(=O)cc(-c1cccs1)n2C	MTT	HeLa S3	16 µg/mL
O=C(NCCCc1ccccc1)NCCc1ccc2c(n1)NCCC2	-	PBMC	50 µM
COc1cnc(-n2cc(C)nn2)c2[nH]cc(C(=O)C(=O)N3CCN(C(=O)c4ccccc4)[C@H](C)C3)c12	trypan blue	HeLa	>100 µM
O=C(NCCc1ccc2c(n1)NCCC2)NC1CCOCC1	-	PBMC	50 µM
CCOC(=O)[C@@]1(C)CC[C@]2(C)CC[C@]3(C)C(=CC(=O)[C@@H]4[C@@]5(C)CC/C(=N\OCc6cc(C)nn6C)C(C)(C)[C@@H]5CC[C@]43C)[C@@H]2C1	MTT	CT26	20.21 µM
CN1CCn2c(nc(C(=O)NCc3ccc(F)cc3)c(O)c2=O)C(NS(C)(=O)=O)C1	microscopy	MT-4	>1 µM
CC(C)N(Cc1cccc(OCCCCCC(=O)OC(=O)O)c1)C(=O)c1ccc(-c2cccc(C(F)(F)F)c2)cc1	-	RAJI	>20 µM
COc1cnc(-n2cnc(C)c2)c2[nH]cc(C(=O)C(=O)N3CCN(C(=O)c4ccccc4)CC3)c12	trypan blue	HeLa	>100 µM
CN1CCn2c(nc(C(=O)NCc3ccc(F)cc3)c(O)c2=O)C1CS(C)(=O)=O	microscopy	MT-4	>10 µM
CCn1c(-c2ccccc2)c(C)c(=O)c2cc(-c3ccccc3)ccc21	MTT	HELA-OHIO	>2.5 µg/mL
CC[C@@H](CCC[C@@H](CO)N(CCC(C)C)S(=O)(=O)c1ccc(N)cc1)NC(=O)[C@@H](NC(=O)OC)C1c2ccccc2C=Cc2ccccc21	microscopy	T lymphoid cells	>10 µM
CC1(C)c2nc(C(=O)NCc3ccc(F)cc3)c(O)c(=O)n2CCN1Cc1cscn1	microscopy	MT-4	>1 µM
COc1cc(C)ccc1OCCOc1ccccc1F	-	BJ	>20 µM
O=C(c1cc(=O)n(O)c2ncccc12)N1CCc2ccccc2C1	-	HeLa	<100 µM
CCOC(=O)C1=C(CN2CC(F)(F)[C@@H]3[C@H]2CON3CC[C@](C)(O)C(=O)O)NC(c2nccs2)=N[C@H]1c1cccc(F)c1C	WST / absorbance	HepG2.2.15	>100 µM
COC(=O)N[C@H](C(=O)N[C@@H](C)CCC[C@@H](CO)N(CC1CC1)S(=O)(=O)c1ccc(N)cc1)C(c1ccccc1)c1ccccc1	microscopy	T lymphoid cells	>10 µM
COc1cnc(-c2nccs2)c2[nH]cc(C(=O)C(=O)N3CCN(C(=O)c4ccccc4)CC3)c12	trypan blue	HeLa	>100 µM
O=C(NCCc1ccc2c(n1)NCCC2)NCc1ccccc1N1CCOCC1	-	PBMC	50 µM
NC(=S)Nc1cccc(OCCCCCOc2ccc(Cl)c3ccccc23)c1	MTS	Ava5-EG(delta4AB)SEAP	>1 µM
CCOC(=O)C1=C(CN2CC(F)(F)[C@@H]3[C@H]2CON3C[C@H](O)[C@@H](CC)C(=O)O)NC(c2nccs2)=N[C@H]1c1cccc(F)c1C	WST / absorbance	HepG2.2.15	>100 µM
Cc1ccc(/C=C2/Cn3c(nc4c(c3=S)C3=C(CCC/C3=C\c3ccncc3)C(c3ccncc3)S4)SC2=O)cc1	MTT	MGC-803	22.5 µM
CCc1nc(CCC(=O)O)cnc1CCC(=O)O	MTT	SMMC-7721	>40 µg/mL
CCn1c(-c2ccccc2)c(C)c(=O)c2cc(C(C)C)ccc21	MTT	HeLa S3	12 µg/mL
CCN([C@H](CO)CCC[C@H](C)NC(=O)[C@@H](NC(=O)OC)C(c1ccccc1)c1ccccc1)S(=O)(=O)c1ccc(CO)cc1	microscopy	T lymphoid cells	>10 µM
COc1ccc(NC(=O)NCCc2ccc3c(n2)NCCC3)cc1OC	-	PBMC	0.68 µM
CCCNc1ccccc1OCCCCC(=O)OCC	-	RAJI	>20 µM
CC(C)C[C@@H]1NC(=O)[C@H](Cc2c[nH]c3ccccc23)NC(=O)[C@@H](CCCN)NC(=O)[C@H](CC(N)=O)NC(=O)[C@H](C(C)C)NC(=O)[C@@H](CC(C)C)NC1=O	MTT	Colorectal carcinoma	>30 µM
Cn1cnc(CN2CCn3c(nc(C(=O)NCc4ccc(F)cc4)c(O)c3=O)C2(C)C)n1	microscopy	MT-4	>1 µM
CCc1ncn(-c2ncc(OC)c3c(C(=O)C(=O)N4CCN(C(=O)c5ccccc5)[C@H](C)C4)c[nH]c23)n1	trypan blue	HeLa	>100 µM
CC[C@@H](CCC[C@@H](CO)N(CC(C)C)S(=O)(=O)c1ccc(CO)cc1)NC(=O)[C@@H](N)C(c1ccccc1)c1ccccc1	microscopy	T lymphoid cells	>10 µM
CCOC(=O)c1[nH]c2c(c1NC(N)=S)C1=C(CCC/C1=C\c1ccncc1)C(c1ccncc1)S2	MTT	CNE-2	>50 µM
COc1ccccc1NC(=O)NCCc1ccc2c(n1)NCCC2	-	PBMC	6 µM
COC(=O)N[C@@H](Cc1ccccc1Cl)C(=O)N[C@H](CCC[C@@H](CO)N(CCC(C)C)S(=O)(=O)c1ccc([C@@H](C)O)cc1)C1CC1	microscopy	T lymphoid cells	>10 µM
CCCOc1ccc2c(c1)c(=O)c(C)c(-c1ccccc1)n2CC	MTT	HELA-OHIO	>10 µg/mL
CC(C)C[C@@H]1NC(=O)[C@H](Cc2c[nH]c3ccccc23)NC(=O)[C@@H](Cc2ccccc2)NC(=O)[C@H](CCCCN)NC(=O)[C@H](C(C)C)NC(=O)[C@@H](CC(C)C)NC1=O	MTT	Colorectal carcinoma	>30 µM
CC(CCOc1ccc(-c2ccccc2)cc1)CCOc1cccc(NC(N)=S)c1	MTS	Ava5-EG(delta4AB)SEAP	>1 µM
S=c1[nH]c2c(c(=S)[nH]1)C1=C(CCC/C1=C\c1ccncc1)C(c1ccncc1)S2	MTT	MGC-803	15.4 µM
COc1cc2c(cc1NC(N)=S)oc1ccccc12	MTS	Ava5-EG(delta4AB)SEAP	>1 µM
CCn1c(-c2ccccc2)c(C)c(=O)c2cc(OCC(C)C)ccc21	MTT	HeLa S3	>4 µg/mL
CC(C)C[C@@H]1NC(=O)[C@H](Cc2c[nH]c3ccccc23)NC(=O)C(C)(C)NC(=O)[C@H](CCCCN)NC(=O)[C@H](C(C)C)NC(=O)[C@@H](CC(C)C)NC1=O	MTT	Lung carcinoma cells	>30 µM
CC1(C)c2nc(C(=O)NCc3ccc(F)cc3)c(O)c(=O)n2CCN1S(C)(=O)=O	microscopy	MT-4	>1 µM
O=C(c1c[nH]c2ccccc12)[C@H](O)CO	MTT	A-594	>40 µg/mL
COC(=O)N[C@H](C(=O)N[C@@H](C)CCC[C@@H](CO)N(C)S(=O)(=O)c1ccc(N)cc1)C(c1ccccc1)c1ccccc1	microscopy	T lymphoid cells	>10 µM
CCOC(=O)[C@@]1(C)CC[C@]2(C)CC[C@]3(C)C(=CC(=O)[C@@H]4[C@@]5(C)CC/C(=N\OCC6(C)COC6)C(C)(C)[C@@H]5CC[C@]43C)[C@@H]2C1	MTT	K562	55.46 µM
Cc1c(-c2ccccc2)n(-c2ccc(F)cc2)c2ccc(C(C)C)cc2c1=O	MTT	HELA-OHIO	>5 µg/mL
O=c1c(Cc2ccccc2)c(O)c2cc(-c3ccccc3)cnc2n1O	-	HeLa	<100 µM
Cc1nc2c(c(=N)n1Nc1ccccc1)C1=C(CCC/C1=C\c1ccncc1)C(c1ccncc1)S2	MTT	KB	11.5 µM
NC(=S)Nc1cccc(OCCCCOc2ccccc2)c1	MTS	Ava5-EG(delta4AB)SEAP	>1 µM
CCOC(=O)[C@@]1(C)CC[C@]2(C)CC[C@]3(C)C(=CC(=O)[C@@H]4[C@@]5(C)CC/C(=N\OCc6ccsc6)C(C)(C)[C@@H]5CC[C@]43C)[C@@H]2C1	MTT	K562	14.38 µM
NC(=S)Nc1cccc(OCCCCCOc2cccc(C(O)c3ccccc3)c2)c1	MTS	Ava5-EG(delta4AB)SEAP	>1 µM
CCOC(=O)[C@@]1(C)CC[C@]2(C)CC[C@]3(C)C(=CC(=O)[C@@H]4[C@@]5(C)CC/C(=N\OCc6cccc7ccccc67)C(C)(C)[C@@H]5CC[C@]43C)[C@@H]2C1	MTT	CT26	>100 µM
Cc1c(-c2ccccc2)n(C)c2cc(C(C)C)c(OC(C)C)cc2c1=O	MTT	HeLa S3	>5 µg/mL

The first 5 rows once more:

{"smiles": "CC(C)C[C@@H]1NC(=O)[C@H](Cc2c[nH]c3ccccc23)NC(=O)[C@@H](CCCCN)NC(=O)[C@H](CCCCN)NC(=O)[C@H](C(C)C)NC(=O)[C@@H](CC(C)C)NC1=O", "method": "MTT", "cells": "Lung carcinoma cells", "result": ">30 µM"}
{"smiles": "O=c1cc(O)c2cccnc2n1O", "cells": "HeLa", "result": "<100 µM"}
{"smiles": "CCn1c(-c2ccccc2)c(C)c(=O)c2ccc(C(C)C)cc21", "method": "MTT", "cells": "HeLa S3", "result": ">10 µg/mL"}
{"smiles": "CCOC(=O)C1=C(CN2CC(F)(F)[C@@H]3[C@H]2CON3C[C@@H](OCC)C(C)(C)C(=O)O)NC(c2nccs2)=N[C@H]1c1cccc(F)c1C", "method": "WST / absorbance", "cells": "HepG2.2.15", "result": "48 µM"}
{"smiles": "NC(=S)Nc1cccc(OCCCCc2ccccc2)c1", "method": "MTS", "cells": "Ava5-EG(delta4AB)SEAP", "result": ">1 µM"}